Anti-infective test results gathered from many reports (values: NIAID ChemDB through PubChem).

Common to all: growth or infection tests; agent: HIV-1; cells: CEM; endpoint: fold resistance

Blank or dashed fields: not listed here. Conditions beyond the fields shown may differ between rows. Fold resistance has wild type as its base.

structure | strain | mutations | method | result
CC(=O)OCCOC(=O)c1cc(NC(=S)OC(C)C)ccc1Cl |  | RT-E138K | syncytia | >10
CC1=C(C(=O)Nc2ccc(Cl)c(OCC=C(Cl)Cl)c2)SCCO1 | TSAO-m3T-resistant (RT E138K) | RT-E138K | syncytia | 1.67
Cc1ccc(C)c(CS(=O)c2ccc(Cl)c[n+]2[O-])c1 |  | RT-Y181C | cytopathic effect | 4.7
CCCCCCCCCC[N+](C)(C)CCCNCc1c(O)cc2c(c1O)-c1cc(ccc1O)[C@H]1NC(=O)[C@@H]3NC(=O)C4NC(=O)[C@@H](Cc5ccc(c(Cl)c5)Oc5cc3cc(c5O)Oc3ccc(cc3Cl)[C@@H](O)[C@H](NC1=O)C(=O)N[C@@H]2C(=O)O)NC(=O)[C@H](N)c1ccc(O)c(c1)Oc1cc(O)cc4c1 |  | RT-Y188H | syncytia | 2.14
C/C=C/CSc1cc(NC(=S)c2ccoc2C)ccc1Cl |  | RT-V106A | syncytia | 6.25
C/C=C/COc1cc(NC(=S)OC(C)C)ccc1Cl |  | RT-V106A | syncytia | 12.5
CCOCn1c(Cc2ccccc2)c(C(C)C)c(=O)[nH]c1=O | IIIB | RT-Y188H | syncytia | 8500
CC(C)OC(=O)c1cc(NC(=S)OC(C)C)ccc1Cl | IIIB | RT-Y188L | syncytia | 69
CCCCCCCCCC[N+](C)(C)CCCNCc1c(O)cc2c(c1O)-c1cc(ccc1O)[C@H]1NC(=O)[C@@H]3NC(=O)C4NC(=O)[C@@H](Cc5ccc(c(Cl)c5)Oc5cc3cc(c5O)Oc3ccc(cc3Cl)[C@@H](O)[C@H](NC1=O)C(=O)N[C@@H]2C(=O)O)NC(=O)[C@H](N)c1ccc(O)c(c1)Oc1cc(O)cc4c1 | RT-K188H | RT-Y188H | syncytia | 2.14
O=C(Nc1ccc(Cl)c(C(=O)OC2CCCCC2)c1)c1ccccc1F | IIIB | RT-D138K | syncytia | 6.67
C/C=C/COc1cc(NC(=S)c2ccn(C)c2C)ccc1Cl |  | RT-V106A | syncytia | 37.9
CC(C)OC(=S)Nc1ccc(Cl)c(C(=O)OCC[Si](C)(C)C)c1 |  | RT-V106A | syncytia | 27.5
Cc1occc1C(=S)Nc1ccc(Cl)c(/C=N/OC(C)(C)C)c1 | IIIB | RT-L100I | syncytia | 2
CC(C)OC(=O)c1cc(NC(=S)OC(C)C)ccc1Cl | IIIB | RT-K101E |  | 2.8
Cc1sccc1C(=S)Nc1ccc(Cl)c(OCCC(C)C)c1 |  | RT-L100I | syncytia | 4.1
C=C(Cl)COc1cc(NC(=S)c2ccsc2C)ccc1C#N | TIBO R82913-resistant (RT K103N) | RT-K103N | syncytia | 13.3
Cc1ccoc1C(=S)Nc1ccc(Cl)c(C(=O)OC(C)C)c1 |  | RT-V106A | syncytia | 51.6
CC(C)OC(=O)c1cc(NC(=S)OC(C)(C)C)ccc1Cl |  | RT-Y181C | syncytia | 10.8
Cc1sccc1C(=O)Nc1ccc(Cl)c(OCC=C(Cl)Cl)c1 | Nevirapine-resistant isolate (RT V106A) | RT-V106A | syncytia | 13.3
Cc1ccsc1C(=S)Nc1ccc(Cl)c(C(=O)OC(C(C)C)C(C)C)c1 |  | RT-K103N | syncytia | 961
Cc1ccc(C(C)S(=O)(=O)c2c(C)ccc[n+]2[O-])c(C)c1 |  | RT-Y181C | cytopathic effect | 14.7
Cc1occc1C(=O)Nc1ccc(Cl)c(SCC=C(Cl)Cl)c1 | TSAO-m3T-resistant (RT E138K) | RT-E138K | syncytia | 7.31
C=CCOc1cc(NC(=S)OC(C)C)ccc1C#N |  | RT-V106A | syncytia | 7.99
COCC1=C(C(=O)Nc2ccc(Cl)c(C(=O)OC(C)C)c2)SCCO1 | Nevirapine-resistant (RT V106A) | RT-V106A | syncytia | 14.3
CC(C)OC(=O)Oc1cc(NC(=S)OC(C)C)ccc1Cl |  | RT-E138K | syncytia | 2.5
Cc1ccsc1C(=O)Nc1ccc(Cl)c(/C=N/OC(C)(C)C)c1 |  | RT-Y181C | syncytia | 13
Cc1ccc(C)c(CS(=O)(=O)c2cccc[n+]2[O-])c1 | IIIB | RT-K103N | syncytia | 2.07
C/C=C\COc1cc(NC(=S)OC(C)C)ccc1Cl |  | RT-Y181C | syncytia | 150
CC(C)=CCOc1cc(NC(=S)c2ccsc2C)ccc1Cl |  | RT-Y181C | syncytia | 4.11
Cc1ccc(C)c(CS(=O)c2ccc(Cl)c[n+]2[O-])c1 | IIIB | RT-Y181C | syncytia | 4.7
CC1=C(C(=O)Nc2ccc(Cl)c(C(=O)OC(C)C)c2)SCCO1 | IIIB | RT-Y181C | syncytia | 1000
CC(C)COC(=O)c1cc(NC(=S)OC(C)C)ccc1Cl |  | RT-L100I | syncytia | 91
Cc1occc1C(=S)Nc1ccc(Cl)c(/C=N/OCc2ccccc2)c1 |  | RT-L100I | syncytia | >3.33
CC(C)OC(=O)c1cc(NC(=S)N(C)C(C)C)ccc1Cl |  | RT-V106A | syncytia | >1
Cc1sccc1C(=S)Nc1ccc(Cl)c(C(=O)OC2CCCCC2)c1 |  | RT-V106A | syncytia | 8.57
C=C(Cl)COc1cc(NC(=S)c2ccoc2C)ccc1Cl | Nevirapine-resistant isolate (RT V106A) | RT-V106A | syncytia | 10.9
CC(C)OC(=O)c1cc(NC(=S)c2cccs2)ccc1Cl |  | RT-L100I | syncytia | 71.4
CCCCOC(=O)c1cc(NC(=O)C2=C(C)OCCS2)ccc1Cl | PYR-resistant (RT Y181C) | RT-Y181C | syncytia | 17.5
CC(C)OC(=S)Nc1ccc(Cl)c(C(=O)OCC(F)(F)F)c1 |  | RT-Y181C | syncytia | >28.6
CC1=C(C(=O)Nc2cc(C(=O)OC(C)C)c(F)cc2F)SCCO1 | TIBO-resistant (RT L100I) | RT-L100I | syncytia | >11.8
CC(C)=CCOc1cc(NC(=S)c2ccoc2C)ccc1Cl | IIIB | RT-Y181C | syncytia | 36.6
Cc1occc1C(=S)Nc1ccc(Cl)c(OC(=O)OC(C)C)c1 |  | RT-K103N | syncytia | 10.9
C#CCOc1cc(NC(=S)OC(C)C)ccc1Cl |  | RT-L100I | syncytia | 50
Cc1ccsc1C(=S)Nc1ccc(Cl)c(/C=N/OC(C)(C)C)c1 |  | RT-Y181C | syncytia | 20
CC1=C(C(=O)Nc2ccc(F)c(C(=O)OC(C)C)c2)SCCO1 | PYR-resistant (RT Y181C) | RT-Y181C | syncytia | >28.6
CN1CCN(C(=O)c2ccc3c(=O)c4ccccc4[nH]c3c2)CC1 |  | RT-E138K | syncytia | 70.9
CCc1c(Sc2cc(C)cc(C)c2)n(COCCO)c(=S)[nH]c1=O | IIIB | RT-Y188H | syncytia | ≥2500
C/C(Cl)=C/COc1cc(NC(=O)c2ccoc2C)ccc1Cl | TSAO-m3T-resistant (RT E138K) | RT-E138K | syncytia | 7.11
CCOCn1c(Cc2cc(C)cc(C)c2)c(CC)c(=O)[nH]c1=O | IIIB | RT-Y181I | syncytia | 350
COC(=S)Nc1ccc(Cl)c(C(=O)OC(C)C)c1 |  | RT-E138K | syncytia | >5.27
CCc1c(Sc2cc(C)cc(C)c2)n(COCc2ccccc2)c(=O)[nH]c1=O | IIIB | Nevirapine resistant (RT Y181C) | syncytia | 100
CCOC(=O)c1cc(NC(=S)OC(C)C)ccc1Cl |  | RT-Y181C | syncytia | 151
Cc1ccc(C)c(CS(=O)(=O)c2cccc[n+]2[O-])c1 |  | RT-Y181C | cytopathic effect | 3.77
Cc1ccccc1C(=S)Nc1ccc(Cl)c(C(=O)OC(C)C)c1 |  | RT-V106A | syncytia | 31.2
CCC(CC)COC(=O)c1cc(NC(=S)OC(C)C)ccc1Cl |  | RT-Y181C | syncytia | 83.2
Cn1cccc1C(=S)Nc1ccc(Cl)c(/C=N/OC(C)(C)C)c1 |  | RT-Y188L | syncytia | >69.1
Cc1occc1C(=S)Nc1ccc(Cl)c(SCC=C(Cl)Cl)c1 | Pyridone-resistant (RT Y181C) | RT-Y181C | syncytia | 26
CCOC(=O)c1cc(NC(=S)c2ccoc2C)ccc1C |  | RT-Y181C | syncytia | 63.3
Cc1occc1C(=O)Nc1ccc(Cl)c(/C=N/N(C)C)c1 | HEPT-resistant (RT Y188L) | RT-Y188L | syncytia | <8.89
CC(C)OC(=O)c1cc(NC(=S)c2ccccc2N)ccc1Cl |  | RT-V106A | syncytia | 100
CSCCOC(=S)Nc1ccc(Cl)c(C(=O)OC(C)C)c1 |  | RT-V106A | syncytia | 12.2
CC(C)=CCOc1cc(NC(=S)c2ccoc2C)ccc1Cl |  | RT-L100I | syncytia | 2.3
CC(C)OC(=S)Nc1ccc(Cl)c(C(=O)OCC2CC2)c1 |  | RT-V106A | syncytia | 67.5
Cc1ccsc1C(=S)Nc1ccc(Cl)c(C(=O)OC(C)C)c1 |  | RT-L100I | syncytia | 150
COc1ccc(NC(=S)c2ccoc2C)cc1OCC=C(Cl)Cl | TSAO-m3T-resistant (RT E138K) | RT-E138K | syncytia | 4.17

For reference, 6 entries again:

| structure | strain | mutations | method | result |
|---|---|---|---|---|
| Cc1ccc(C)c(CS(=O)c2ccc(Cl)c[n+]2[O-])c1 |  | RT-Y181C | cytopathic effect | 4.7 |
| CC(C)OC(=O)Oc1cc(NC(=S)OC(C)C)ccc1Cl |  | RT-E138K | syncytia | 2.5 |
| C/C=C/COc1cc(NC(=S)c2ccn(C)c2C)ccc1Cl |  | RT-V106A | syncytia | 37.9 |
| Cc1occc1C(=O)Nc1ccc(Cl)c(SCC=C(Cl)Cl)c1 | TSAO-m3T-resistant (RT E138K) | RT-E138K | syncytia | 7.31 |
| Cc1ccc(C)c(CS(=O)c2ccc(Cl)c[n+]2[O-])c1 | IIIB | RT-Y181C | syncytia | 4.7 |
| Cc1ccc(C)c(CS(=O)(=O)c2cccc[n+]2[O-])c1 | IIIB | RT-K103N | syncytia | 2.07 |